Results from patent publication US11604145B2, “Method for ultra-high performance screening of biological objects” (dated 2023).

Tested on: S. aureus
Experiment: Cocultivation with S. aureus in culture
Settings: P. aeruginosa cocultivation

pyoverdine
mediation of S. aureus growth inhibition: not mediated
